Data on one compound can be found in publication PMC5462475, “A conformational switch high-throughput screening assay and allosteric inhibition of the flavivirus NS2B-NS3 protease” (PLoS Pathogens, 2017).

The assay concerns the target linked DENV2 NS2B-NS3 (Dengue virus type 2, UniProt P14340). Description: Protein thermal shift assay (PTSA), linked WT DENV2 NS2B-NS3.

For `O=C1C=CC(=NNc2ccc([N+](=O)[O-])cc2Cl)C=C1C(=O)Nc1cccc(Cl)c1` [NSC135618], under “linked NS2B-NS3 2.5 μM, compound 4.8 μM”, the “increase of melting temperature (ΔTm) vs DMSO” value came out at 2.6 °C. The ΔTm at 4.8 µM (read-out: ΔTm (WT)) was 2.64 °C.

For orientation: ΔTm means the shift of the melting midpoint relative to a reference.
